# Source: publication PMC10869273, “Efficient evolution of human antibodies from general protein language models” (2023)
# Target: m5 (UniProt Q05320)
# Experiment: BLI
# Settings: monovalent Fab
Substance,Kd (parent: 0.21),Kd (parent: 75)
mAb114 Fab (wild-type) VH:D42G; VH:A68T; VH:S79Y; VL:V43A,0.061 nM,
mAb114 unmutated common ancestor (UCA) Fab (wild-type) VH:P60A; VH:G61D; VL:V43A,,480 nM
